Key:
[1] = target: HCV NS3/4A protease complex, BMS strain (genotype 1a) (UniProt P27958, C1454S/C1711G, species not given/STRAIN_BMS); assay: Recombinant HCV NS3/4A protease complex FRET peptide assay, BMS strain; type: biochemical; conditions: NS3/4A BMS strain; activity range symbols
Description: Recombinant HCV NS3/4A Protease Complex FRET Peptide Assay
The purpose of this in vitro assay was to measure the inhibition of HCV NS3 protease complexes, derived from the BMS strain, H77C strain or J416S strain, as described below, by compounds of the present invention. This assay provides an indication of how effective compounds of the present invention would be in inhibiting HCV proteolytic activity.
Serum from an HCV-infected patient was obtained from Dr. T. Wright, San Francisco Hospital. An engineered full-length cDNA (compliment deoxyribonucleic acid) template of the HCV genome (BMS strain) was constructed from DNA fragments obtained by reverse transcription-PCR (RT-PCR) of serum RNA (ribonucleic acid) and using primers selected on the basis of homology between other genotype 1a strains. From the determination of the entire genome sequence, a genotype 1a was assigned to the HCV isolate according to the classification of Simmonds et al. (See P Simmonds, K A Rose, S Graham, S W Chan, F McOmish, B C Dow, E A Follett, P L Yap and H Marsden, J. Clin. Microbiol., 31(6), 1493–1503 (1993)). […] The infectious clones, H77C (1a genotype) and J4L6S (1b genotype) were obtained from R. Purcell (NIH) and the sequences are published in Genbank (AAB67036, see Yanagi, M., Purcell, R. H., Emerson, S. U. and Bukh, J. Proc. Natl. Acad. Sci. U.S.A. 94(16), 8738–8743 (1997); AF054247, see Yanagi, M., St Claire, M., Shapiro, M., Emerson, S. U., Purcell, R. H. and Bukh, J, Virology 244 (1), 161–172. (1998)).
The H77C and J4L6S strains were used for production of recombinant NS3/4A protease complexes. DNA encoding the recombinant HCV NS3/4A protease complex (amino acids 1027 to 1711) for these strains were manipulated as described by P. Gallinari et al. (see Gallinari P, Paolini C, Brennan D, Nardi C, Steinkuhler C, De Francesco R. Biochemistry. 38(17):5620–32, (1999)). Briefly, a three-lysine solubilizing tail was added at the 3′-end of the NS4A coding region. The cysteine in the P1 position of the NS4A-NS4B cleavage site (amino acid 1711) was changed to a glycine to avoid the proteolytic cleavage of the lysine tag. Furthermore, a cysteine to serine mutation was introduced by PCR at amino acid position 1454 to prevent the autolytic cleavage in the NS3 helicase domain. The variant DNA fragment was cloned in the pET21b bacterial expression vector (Novagen) and the NS3/4A complex was expressed in Escherichia coli strain BL21 (DE3) (Invitrogen) following the protocol described by P. Gallinari et al. (see Gallinari P, Brennan D, Nardi C, Brunetti M, Tomei L, Steinkuhler C, De Francesco R., J. Virol. 72(8):6758–69 (1998)) with modifications. Briefly, NS3/4A expression was induced with 0.5 mM Isopropyl β-D-1-thiogalactopyranoside (IPTG) for 22 hr at 20° C. A typical fermentation (10 L) yielded approximately 80 g of wet cell paste. The cells were resuspended in lysis buffer (10 mL/g) consisting of 25 mM N-(2-Hydroxyethyl)piperazine-N′-(2-Ethane Sulfonic acid) (HEPES), pH7.5, 20% glycerol, 500 mM Sodium Chloride (NaCl), 0.5% Triton-X100, 1 microgram/milliliter (“μg/mL”) lysozyme, 5 mM Magnesium Chloride (MgCl2), 1 ug/ml DnaseI, 5 mM β-Mercaptoethanol (βME), Protease inhibitor—Ethylenediamine Tetraacetic acid (EDTA) free (Roche), homogenized and incubated for 20 mins at 4° C. The homogenate was sonicated and clarified by ultra-centrifugation at 235000 g for 1 hr at 4° C. Imidazole was added to the supernatant to a final concentration of 15 mM and the pH adjusted to 8.0. The crude protein extract was loaded on a Nickel-Nitrilotriacetic acid (Ni-NTA) column pre-equilibrated with buffer B (25 mM HEPES, pH8.0, 20% glycerol, 500 mM NaCl, 0.5% Triton-X100, 15 mM imidazole, 5 mM βME). The sample was loaded at a flow rate of 1 mL/min. The column was washed with 15 column volumes of buffer C (same as buffer B except with 0.2% Triton-X100). The protein was eluted with 5 column volumes of buffer D (same as buffer C except with 200 mM Imidazole). […]

Chains of the proteins cited; added tags and fusions are not shown. Lines headed by an entry give the natural chain unless they say otherwise; changes in a name come on top. Residues count along the entry.
UniProt P27958, 1027-1657 C1454S limits assumed, stated change not applied: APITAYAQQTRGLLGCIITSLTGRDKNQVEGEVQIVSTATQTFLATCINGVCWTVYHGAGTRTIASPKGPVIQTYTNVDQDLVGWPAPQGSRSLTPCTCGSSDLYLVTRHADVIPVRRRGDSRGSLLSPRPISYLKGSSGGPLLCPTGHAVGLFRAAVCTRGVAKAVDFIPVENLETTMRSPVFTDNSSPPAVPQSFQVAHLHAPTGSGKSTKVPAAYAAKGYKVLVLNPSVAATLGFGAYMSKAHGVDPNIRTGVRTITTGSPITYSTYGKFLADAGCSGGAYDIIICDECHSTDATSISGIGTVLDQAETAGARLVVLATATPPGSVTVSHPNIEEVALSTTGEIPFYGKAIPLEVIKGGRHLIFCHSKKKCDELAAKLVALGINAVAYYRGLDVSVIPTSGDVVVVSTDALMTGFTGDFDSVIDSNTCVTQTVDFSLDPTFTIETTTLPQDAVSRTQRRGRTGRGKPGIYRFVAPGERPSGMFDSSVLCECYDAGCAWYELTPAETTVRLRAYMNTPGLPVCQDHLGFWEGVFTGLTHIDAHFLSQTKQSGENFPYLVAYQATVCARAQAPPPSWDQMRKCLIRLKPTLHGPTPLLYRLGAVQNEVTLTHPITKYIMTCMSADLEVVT

[2] = system: HCV replicon (HCV 1b-377-neo replicon cells, Huh7); assay: HCV replicon cell-based FRET assay; conditions: activity range symbols
Description: HCV Replion assays were utilized in the present invention, and were prepared, conducted and validated as follows:
An HCV replicon whole cell system was established as described by Lohmann V, Korner F, Koch J, Herian U, Theilmann L, Bartenschlager R., Science 285(5424): 110–3 (1999). This system enabled us to evaluate the effects of our HCV Protease compounds on HCV RNA replication. Briefly, using the HCV strain 1B sequence described in the Lohmann paper (Assession number: AJ238799), an HCV cDNA was synthesized by Operon Technologies, Inc. (Alameda, Calif.), and the full-length replicon was then assembled in plasmid pGem9zf(+) (Promega, Madison, Wis.) using standard molecular biology techniques. The replicon consists of (i) the HCV 5′ UTR fused to the first 12 amino acids of the capsid protein, (ii) the neomycin phosphotransferase gene (neo), (iii) the IRES from encephalomyocarditis virus (EMCV), and (iv) HCV NS3 to NS5B genes and the HCV 3′ UTR. Plasmid DNAs were linearized with ScaI and RNA transcripts were synthesized in vitro using the T7 MegaScript transcription kit (Ambion, Austin, Tex.) according to manufacturer's directions. To generate cell lines, 4×10^6 Huh-7 cells (kindly provided by R. Bartenschlager and available from Health Science Research Resources Bank, Japan Health Sciences Foundation) were electroporated (GenePulser System, Bio-Rad) with 10 microgram(“μg”) of RNA transcript and plated into 100-mm dishes. After 24 h, selective media containing 1.0 milligrams/milliliter (“mg/ml”) G418 was added and media was changed every 3 to 5 days. Approximately 4 weeks after electroporation, small colonies were visible which were isolated and expanded for further analysis. These cell lines were maintained at 37° C., 5% CO2, 100% relative humidity in DMEM (Cat# 11965-084) Gibco-BRL, Rockville, Md., with 10% heat inactivated calf serum (Sigma), 10 ml of 100× penicillin/streptomycin (Cat# 15140-122) Gibco-BRL, Rockville, Md., Geneticin (Cat# 10131-027) Gibco-BRL, Rockville, Md. at 1 mg/ml. One of the cell lines (deposited as ATCC Accession No. PTA-4583 in the American Type Culture Collection) which had approximately 3,000 copies of HCV replicon RNA/cell was used for development of the assay (HCV 1b-377-neo replicon cells).
Huh7 cells, constitutively expressing the HCV replicon, were grown in Dulbecco's Modified Eagle Media (DMEM) containing 10% Fetal calf serum (FCS) and 1 mg/ml G418 (Gibco-BRL). Cells were seeded the night before (1.5×10^4 cells/well) in 96-well tissue-culture sterile plates. Compound and no compound controls were prepared in DMEM containing 4% FCS, 1:100 Penicillin/Streptomysin, 1:100 L-glutamine and 5% DMSO in the dilution plate (0.5% DMSO final concentration in the assay). Compound/DMSO mixes were added to the cells and incubated for 4 days at 37° C. After 4 days, cells were first assessed for cytotoxicity using alamar Blue (Trek Diagnotstic Systems) for a CC50 reading. The toxicity of compound (CC50) was determined by adding 1/10th volume of alamar Blue to the media incubating the cells. After 4 hr, the fluorescence signal from each well was read, with an excitation wavelength at 530 nm and an emission wavelength of 580 nm, using the Cytofluor Series 4000 (Perspective Biosystems). Plates were then rinsed thoroughly with Phosphate-Buffered Saline (PBS) (3 times 150 μl). The cells were lysed with 25 μl of a lysis assay reagent containing an HCV protease substrate (5× cell Luciferase cell culture lysis reagent (Promega #E153A) diluted to 1× with distilled water, NaCl added to 150 mM final, the FRET peptide diluted to 10 μM final from a 2 mM stock in 100% DMSO). The HCV protease substrate (FRET peptide; AnaSpec, Inc. cat #22991, described by Taliani et al. in Anal. Biochem. 240(2):60–67 (1996)) contains a fluorescence donor, EDANS, near one end of the peptide and an acceptor, DABCYL, near the other end. […]

Structure (SMILES) | IC50 [1] | EC50 [2]
COc1ccc2c(O[C@@H]3C[C@H]4C(=O)N[C@]5(C(=O)NS(=O)(=O)C6CC6)C[C@H]5/C=C\COCCC[C@H](NC(=O)OC(C)(C)C)C(=O)N4C3)nc(-c3ccccc3)cc2c1 | < 50 nM | < 50 nM
CC(C)(C)OC(=O)N[C@H]1CCCCC/C=C\[C@@H]2C[C@@]2(C(=O)NS(=O)(=O)C2CC2)NC(=O)[C@@H]2C[C@@H](Oc3nc(-c4ccccc4)cc4ccccc34)CN2C1=O [Compound 58, [(Z)-(1S,4R,14S,18R)-4-cyclopropanesulfonylaminocarbonyl-2,15-dioxo-18-(3-phenyl-isoquinolin-1-yloxy)-3,16-diaza-tricyclo[14.3.0.0^4,6]nonadec-7-en-14-yl]-carbamic acid tert-butyl ester] | < 50 nM | < 50 nM
COc1cc2ccnc(O[C@@H]3C[C@H]4C(=O)N[C@]5(C(=O)NS(=O)(=O)C6CC6)C[C@H]5/C=C\CCCCC[C@H](NC(=O)OC(C)(C)C)C(=O)N4C3)c2cc1Cl | < 50 nM | < 50 nM
COc1ccc2c(O[C@@H]3C[C@H]4C(=O)N[C@]5(C(=O)NS(=O)(=O)C6CC6)C[C@H]5/C=C\COCCC[C@H](NC(=O)OC(C)(C)CCl)C(=O)N4C3)nccc2c1 | < 50 nM | 50 to 500 nM
COc1ccc2c(O[C@@H]3C[C@H]4C(=O)N[C@]5(C(=O)NS(=O)(=O)C6CC6)C[C@H]5/C=C\COCCC[C@H](NC(=O)OC(C)(C)C)C(=O)N4C3)nc(-c3ccc(N(C)C)cc3)cc2c1 | < 50 nM | < 50 nM
CC(C)(OC(=O)N[C@H]1CCCCC/C=C\[C@@H]2C[C@@]2(C(=O)NS(=O)(=O)C2CC2)NC(=O)[C@@H]2C[C@@H](Oc3nccc4ccccc34)CN2C1=O)C(F)F | < 50 nM | < 50 nM
COc1cc2ccnc(O[C@@H]3C[C@H]4C(=O)N[C@]5(C(=O)NS(=O)(=O)C6CC6)C[C@H]5/C=C\CCCSC[C@H](NC(=O)OC(C)(C)C)C(=O)N4C3)c2cc1Cl | < 50 nM | < 50 nM
COc1ccc2c(O[C@@H]3C[C@H]4C(=O)N[C@]5(C(=O)NS(=O)(=O)C6CC6)C[C@H]5/C=C\COCCC[C@H](NC(=O)NC5CCCC5)C(=O)N4C3)nc(-c3ccccc3)cc2c1 | < 50 nM | < 50 nM
COc1ccc2c(O[C@@H]3C[C@H]4C(=O)N[C@]5(C(=O)NS(=O)(=O)C6CC6)C[C@H]5/C=C\CCCOC[C@H](NC(=O)OC(C)(C)C)C(=O)N4C3)nc(-c3ccccc3)cc2c1 | < 50 nM | < 50 nM
COc1ccc2c(O[C@@H]3C[C@H]4C(=O)N[C@]5(C(=O)NS(=O)(=O)C6CC6)C[C@H]5/C=C\CCCCC[C@H](NC(=O)OC(C)(C)C)C(=O)N4C3)nc(-c3ccc(N(C)C)cc3)cc2c1 | < 50 nM | < 50 nM
COc1ccc2c(O[C@@H]3C[C@H]4C(=O)N[C@]5(C(=O)NS(=O)(=O)C6CC6)C[C@H]5/C=C\CCCCC[C@H](NC(=O)OC(C)(C)C)C(=O)N4C3)nc(-c3ccccc3)cc2c1 | < 50 nM | < 50 nM
COc1ccc2c(O[C@@H]3C[C@H]4C(=O)N[C@]5(C(=O)NS(=O)(=O)C6CC6)C[C@H]5/C=C\CCCOC[C@H](NC(=O)OC(C)(C)C)C(=O)N4C3)nc(-c3ccc(N(C)C)cc3)cc2c1 | < 50 nM | < 50 nM

From patent publication US7173004B2, “Macrocyclic isoquinoline peptide inhibitors of hepatitis C virus” (Bristol-Myers Squibb Company, priority 2003, dated 2007)
